The target in experiment [1] is serum IgA of slow progressor subject 2097, bleed 2. In words: cell-based or functional assay.
The target of experiment [2] is serum IgA of slow progressor subject 2098, bleed 2. In words: cell-based or functional assay.

KQIINMWQEVG (modifications not checked) [EP-421-433, electrophilic analog of gp120 residues 421-433]: the inhibition of gp120 cleavage by IgA, EP-421-433 at 10 µM in experiment [1] came to 89 % inhibition; in experiment [2], 94 % inhibition.
